By UniProt entry, the sequences of proteins in these tests, tags left out. Where a name states a change or a piece, a line headed by the entry shows the natural chain unless it says otherwise.
UniProt Q9P8P2: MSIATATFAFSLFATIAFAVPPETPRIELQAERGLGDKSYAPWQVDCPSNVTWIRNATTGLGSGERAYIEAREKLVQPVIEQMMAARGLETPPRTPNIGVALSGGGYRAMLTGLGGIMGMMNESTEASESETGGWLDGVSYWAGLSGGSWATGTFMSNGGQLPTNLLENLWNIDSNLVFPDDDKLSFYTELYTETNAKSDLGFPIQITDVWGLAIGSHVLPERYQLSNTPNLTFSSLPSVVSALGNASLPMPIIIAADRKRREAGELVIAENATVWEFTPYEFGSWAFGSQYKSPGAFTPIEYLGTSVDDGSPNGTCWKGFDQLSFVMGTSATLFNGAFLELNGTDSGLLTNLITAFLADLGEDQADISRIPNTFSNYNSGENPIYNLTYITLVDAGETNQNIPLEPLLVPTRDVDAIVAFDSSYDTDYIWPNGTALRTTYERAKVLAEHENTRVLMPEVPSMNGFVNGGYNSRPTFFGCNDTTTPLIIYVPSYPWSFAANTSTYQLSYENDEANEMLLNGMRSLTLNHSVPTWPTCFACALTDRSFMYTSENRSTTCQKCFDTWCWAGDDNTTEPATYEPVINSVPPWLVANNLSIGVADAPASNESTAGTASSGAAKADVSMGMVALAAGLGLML

In patent publication US20100016367A1, “BIS-PYRINIDIUM COMPOUNDS” (priority 2006, published 2010):

Columns and labels:
C. neoformans ATCC 90112 = assay: Antifungal susceptibility assay, MIC; type: cell-based, Cryptococcus neoformans
C. albicans ATCC 10231 = assay: Antifungal susceptibility assay, MIC; type: cell-based, Candida albicans
[1] = target: Secretory Cryptococcal H99 Phospholipase B (PLB) (Cryptococcus neoformans, UniProt Q9P8P2); assay: Phospholipase inhibition, radiometric assay; type: biochemical, C. neoformans var. grubii; details: read-out: Concentration required for 50% inhibition of PLB; secreted PLB activity, pH 4.0, 37° C.
C. albicans ATCC 90028 = assay: Antifungal MIC, broad spectrum; type: cell-based, Candida albicans; details: Table 1b
C. krusei 04-202328 = assay: Antifungal MIC, broad spectrum; type: cell-based, Candida krusei; details: Table 1b
C. krusei ATCC 6258 = assay: Antifungal MIC, broad spectrum; type: cell-based, Candida krusei; details: Table 1b
C. krusei ATCC 9258 = assay: Antifungal MIC, broad spectrum; type: cell-based, Candida krusei; details: Table 1b
[2] = system: C. parapsilosis 04-202398; assay: Antifungal MIC, broad spectrum; type: cell-based, Candida parapsilosis; details: Table 1b
[3] = system: C. parapsilosis ATCC 22019; assay: Antifungal MIC, broad spectrum; type: cell-based, Candida parapsilosis; details: Table 1b
C. glabrata 04-202345 = assay: Antifungal MIC, broad spectrum; type: cell-based, Candida glabrata; details: Table 1b
C. tropicalis 04-202361 = assay: Antifungal MIC, broad spectrum; type: cell-based, Candida tropicalis; details: Table 1b
C. neoformans 05-202523 = assay: Antifungal MIC, broad spectrum; type: cell-based, Cryptococcus neoformans; details: Table 1b
C. gattii 05-200122 = assay: Antifungal MIC, broad spectrum; type: cell-based, Cryptococcus gattii; details: Table 1b
A. fumigatus 05-203114 = assay: Antifungal MIC, broad spectrum; type: cell-based, Aspergillus fumigatus; details: Table 1b
A. fumigatus ATCC 204305 = assay: Antifungal MIC, broad spectrum; type: cell-based, Aspergillus fumigatus; details: Table 1b
A. flavus 05-203758 = assay: Antifungal MIC, broad spectrum; type: cell-based, Aspergillus flavus; details: Table 1b
A. flavus ATCC 204304 = assay: Antifungal MIC, broad spectrum; type: cell-based, Aspergillus flavus; details: Table 1b
A. terreus 05-202844 = assay: Antifungal MIC, broad spectrum; type: cell-based, Aspergillus terreus; details: Table 1b
S. prolificans 05-203060 = assay: Antifungal MIC, broad spectrum; type: cell-based, Scedosporium prolificans; details: Table 1b
S. apiospermum 05-203100 = assay: Antifungal MIC, broad spectrum; type: cell-based, Scedosporium apiospermum; details: Table 1b
[4] = system: Cunninghamella berth 99-12187; assay: Antifungal MIC, broad spectrum; type: cell-based, Cunninghamella bertholletiae; details: Table 1b
[5] = system: Absidia corymbifera 04-200170; assay: Antifungal MIC, broad spectrum; type: cell-based; details: Table 1b
[6] = system: Exophiala jeanselmei 03-200268; assay: Antifungal MIC, broad spectrum; type: cell-based; details: Table 1b
[7] = system: Exophiala spinifera 03-200803; assay: Antifungal MIC, broad spectrum; type: cell-based; details: Table 1b
[8] = system: Fusarium solani 04-203102; assay: Antifungal MIC, broad spectrum; type: cell-based; details: Table 1b
[9] = system: Paecilomyces lilacinus 05-200601; assay: Antifungal MIC, broad spectrum; type: cell-based; details: Table 1b
[10] = system: Rhizopus oryzae 05-203111; assay: Antifungal MIC, broad spectrum; type: cell-based; details: Table 1b

CCCCCc1cc[n+](CCCCCCCCCCCCCC[n+]2ccc(CCCCC)cc2)cc1
MIC C. neoformans ATCC 90112 (C. neoformans ATCC 90112; Table 1): 1.4 µM
MIC C. albicans ATCC 10231 (C. albicans ATCC 10231; Table 1): 0.7 µM
IC50 [1]: 6.5 µM

CC(C)CCc1cc[n+](CCCCCCCCCCCC[n+]2ccc(CCC(C)C)cc2)cc1
MIC C. neoformans ATCC 90112 (C. neoformans ATCC 90112; Table 1b): 5.5 µM
MIC C. neoformans ATCC 90112 (C. neoformans ATCC 90112; Table 1c): 5.5 µM
MIC C. albicans ATCC 10231 (C. albicans ATCC 10231; Table 1b): 5.5 µM
MIC C. albicans ATCC 10231 (C. albicans ATCC 10231; Table 1c): 5.5 µM
MIC C. albicans ATCC 90028 (C. albicans ATCC 90028): 5.5 µM
MIC C. krusei 04-202328 (C. krusei 04-202328): 44 µM
MIC C. krusei ATCC 6258 (C. krusei ATCC 6258): 44 µM
MIC C. krusei ATCC 9258 (C. krusei ATCC 9258): 22 µM
MIC C. parapsilosis 04-202398 [2]: >87.5 µM
MIC C. parapsilosis ATCC 22019 [3]: 2.75 µM
MIC C. glabrata 04-202345 (C. glabrata 04-202345): 2.75 µM
MIC C. tropicalis 04-202361 (C. tropicalis 04-202361): 5.5 µM
MIC C. neoformans 05-202523 (C. neoformans 05-202523): 22 µM
MIC C. gattii 05-200122 (C. gattii 05-200122): 2.75 µM
MIC A. fumigatus 05-203114 (A. fumigatus 05-203114): >87.5 µM
MIC A. fumigatus ATCC 204305 (A. fumigatus ATCC 204305): >87.5 µM
MIC A. flavus 05-203758 (A. flavus 05-203758): >87.5 µM
MIC A. flavus ATCC 204304 (A. flavus ATCC 204304): >87.5 µM
MIC A. terreus 05-202844 (A. terreus 05-202844): 5.5 µM
MIC S. prolificans 05-203060 (S. prolificans 05-203060): 5.5 µM
MIC S. apiospermum 05-203100 (S. apiospermum 05-203100): 22 µM
MIC Cunninghamella berth 99-12187 [4]: >87.5 µM
MIC Absidia corymbifera 04-200170 [5]: >87.5 µM
MIC Exophiala jeanselmei 03-200268 [6]: 5.5 µM
MIC Exophiala spinifera 03-200803 [7]: 2.75 µM
MIC Fusarium solani 04-203102 [8]: 87.5 µM
MIC Paecilomyces lilacinus 05-200601 [9]: >87.5 µM
MIC Rhizopus oryzae 05-203111 [10]: 11 µM

c1cc[n+](CCCCCCCCCCCC[n+]2ccccc2)cc1
IC50 [1]: > 250 µM
